For at least one entry, the source does not settle the construct or the ends of the probe.
System: TBP (TATA-binding protein) + TFIIB (PcIIB) + TFIIF + RNA polymerase II core enzyme
Test: EMSA
Conditions: TFIIF 20 or 40 ng, RNAPII 100 ng, complex dissociated by anti-CTD antibody 8WG16 (printed SWG16); recombinant protein; protein details: His; label: 5' 32P

## GGCTATAAAAGGGGGTGGGGAGGACTTCCCCCCGATATTTTCCCCCACCCC (double strand) [Ad-MLP TATA box probe]
  binding result: binds

Reference: PMC9225179
